Compound potency records, mixed from different reports. Data source: NIAID ChemDB in PubChem.

Shared fields: tests in culture; agent: Mycobacterium tuberculosis

ECn: concentration that inhibits the pathogen or its effect by n%. Inhibition is in % at the dose shown (toxicity tests: loss of growth or viability). a–b is a range or a potency band. MIC bound comes from a single tested concentration. A number after MIC or MFC names an inhibition level or a share of isolates. Neighbouring rows are from separate reports. Blank or dashed fields: not listed here.

smiles,strain,mutations,method,endpoint,tested at,value
Cc1ccn2cc(-c3cc4cc(Cl)cc(Cl)c4oc3=O)nc2c1,H37Rv,-,BACTEC,inhibition,6.25 µg/mL,20%
CC(C)(C)OC(=O)N[C@@H](CO)C(=O)N/N=C/c1ccc(O)c(O)c1,H37Rv,-,resazurin,MIC,-,>100 µg/mL
CCCCN1C(=O)C(=O)c2cccc(-c3ccccc3)c21,H37Ra,-,-,MIC,-,≤20 µg/mL
Cc1ccn2cc(-c3cc4cc(Cl)ccc4oc3=O)nc2c1,H37Rv,-,BACTEC,MIC,-,>6.25 µg/mL
CCCCOC(=O)CCN1CCN(c2ccc(C)cc2)CC1,H37Rv,-,resazurin,inhibition,6.25 µg/mL,1%
COc1c2c(c(OC)c3ccccc13)CN(c1ccccc1Br)C(=N)C2,H37Rv,Lux,luminescence,MIC,-,14.83 µM
COc1cc(Br)cc2cc(-c3cn4ccc(C)cc4n3)c(=O)oc12,H37Rv,-,BACTEC,MIC,-,>6.25 µg/mL
COc1ccc2c3c1OC1C(C)=CCC4C(C2)N(C)CCC314,H37Rv,-,BACTEC,inhibition,12.5 µg/mL,0%
Cc1ccc(C)n1-c1ccc(C(=O)NN2C(=O)c3c(F)c(F)c(F)c(F)c3C2=O)cc1,H37Rv,-,resazurin,MIC,-,0.2 µg/mL
O=C(NCN1CCNCC1)c1cnccn1,ATCC 27294,-,-,MIC,-,100 µg/mL
O=C(Cc1ccccc1)Nn1c(-c2ccccc2)nc2ccccc2c1=O,H37Rv,-,BACTEC,inhibition,12.5 µg/mL,16%
O=C(O)CCN1CSC(=S)N(c2ccco2)C1,H37Rv,-,-,MIC,-,50 µg/mL
O=C(OCc1ccccc1)N1N=NC2C3CC(OCc4ccccc4)(OCc4ccccc4)C(O3)C21,H37Rv,-,BACTEC,MIC bound,-,>12.5 µg/mL
O=C(N[C@@H](CO)C(=O)N/N=C/c1cccc(O)c1O)OCc1ccccc1,H37Rv,-,resazurin,MIC,-,50 µg/mL
COc1cc(O)c2c(c1O)C(=O)c1cc(C)ncc1C2=O,H37Rv,-,BACTEC,MIC bound,-,>12.8 µg/mL
S=C1SCN(C2CC2)CN1C1CC1,H37Rv,-,-,MIC,-,25 µg/mL
COc1cc([N+](=O)[O-])cc2cc(-c3cn4ccccc4n3)c(=O)oc12,H37Rv,-,BACTEC,inhibition,6.25 µg/mL,0%
O=C(NCN1CCOCC1)c1cnccn1,ATCC35801,-,-,MIC,-,16 µg/mL
Cc1cc(C2(c3cc(C)c(O)c(Br)c3)OS(=O)(=O)c3ccccc32)cc(Br)c1O,H37Rv,-,BACTEC,MIC bound,-,>12.5 µg/mL
C[C@]1(/C=C/Cl)C[C@](Cl)(CBr)[C@@H](Br)C[C@H]1Cl,H37Rv,-,-,MIC,-,32 µg/mL
Cc1ccc(-n2cc3c(cc2=N)C(=O)c2ccccc2C3=O)c(Br)c1,H37Rv,Lux,luminescence,MIC,-,0.59 µM
O/C(=C\c1nc2ccccc2nc1/C=C(\O)c1ccccc1)c1ccccc1,-,-,-,EC50,-,>6.25 µg/mL
CCN(CC)c1ccc(N=C2C=CC(=O)c3ncccc32)c(C)c1,H37Rv,-,resazurin,MIC,-,6.25 µg/mL
C=CCn1c(-c2cc3cc(Br)ccc3oc2=O)cs/c1=N\N=C\c1ccc(O)c(OCC)c1,H37Rv,-,-,EC50,-,<12.5 µg/mL
O=c1cc2c(=O)oc3cc(O)c(O)oc3c2c(O)c1O,H37Rv,-,BACTEC,MIC bound,-,>12.5 µg/mL
Cc1ccc(C)n1-c1nc(-c2ccc(Cl)cc2)cs1,H37Rv,-,resazurin,MIC,-,0.8 µg/mL
CC(C)(C)OC(=O)N[C@@H](CO)C(=O)N/N=C/c1cc(O)ccc1O,H37Rv,-,resazurin,MIC,-,>100 µg/mL
CC1(O)CC(c2ccccc2)SC(c2ccccc2)=N1,H37Rv,-,-,EC50,-,>6.25 µg/mL
CCc1cccc(C(C)C)c1NC(=O)C(=O)CC(=O)c1sc(Nc2c(CC)cccc2C(C)(C)C)nc1C,H37Rv,-,resazurin,inhibition,6.25 µg/mL,28%
O=C(/C=C1\N[C@H]2CCCC[C@H]2N\C1=C/C(=O)c1ccccc1)c1ccccc1,-,-,-,MIC,-,>6.25 µg/mL
CC(=O)O[C@H]1CC/C(C)=C\[C@H]2OC(=O)[C@H]3O[C@]32[C@@H](O)[C@@H]2C(C)=CC[C@@H](OC(C)=O)[C@@]12C,H37Rv,-,-,MIC,-,>128 µg/mL
C[C@H]1COc2c(N3CCN(C)CC3)c(F)cc3c(=O)c(C(=O)O)cn1c23,-,-,-,MIC90,-,0.5–16 µg/mL
CCOC(=O)c1ccc(N2Cc3c(c(OC)c4ccccc4c3OC)CC2=N)cc1,H37Rv,Lux,luminescence,MIC,-,12.43 µM
C/C=C\C[C@@H]1O[C@H]1/C=C/C1CCCCCCCC(=O)O1,H37Rv,-,-,MIC,-,8 µg/mL
c1ccc(-c2csc(-n3cccc3)n2)cc1,H37Rv,-,resazurin,MIC,-,0.4 µg/mL
N#Cc1cccc(/C=N/NC(=O)C2COC(=O)N2)c1,H37Rv,-,resazurin,MIC,-,>100 µg/mL
CCOC(=O)C(CC(C)C)NC(=O)c1c2nc3c(C(=O)NC(CC(C)C)C(=O)OCC)ccc(C)c3oc-2c(C)c(=O)c1N,H37Rv,-,BACTEC,MIC bound,-,>12.5 µg/mL
Cc1ccc(-n2cc3c(cc2=N)C(=O)c2ccccc2C3=O)cc1,H37Rv,Lux,luminescence,MIC,-,2.68 µM
CCCC1CC(C)(O)N=C(c2ccccc2)S1,H37Rv,-,-,EC50,-,>6.25 µg/mL
O=C(NN1C(=O)c2c(Br)c(Br)c(Br)c(Br)c2C1=O)c1ccc(-n2cccc2)cc1,H37Rv,-,resazurin,MIC,-,0.8 µg/mL
O=C(/C=C1\N[C@@H]2CCCC[C@H]2N\C1=C/C(=O)c1ccccc1)c1ccccc1,-,-,-,MIC,-,>6.25 µg/mL
N=c1cc2c(cn1-c1ccccc1Cl)C(=O)c1ccccc1C2=O,H37Rv,Lux,luminescence,MIC,-,3 µM
Cc1cc(-c2cccs2)oc(=O)c1NC(=O)c1cnccn1,H37Rv,-,BACTEC,MIC bound,-,>6.25 µg/mL
C[C@@H]1CN(c2c(F)c(N)c3c(=O)c(C(=O)O)cn(C4CC4)c3c2F)C[C@H](C)N1,-,-,-,MIC50,-,0.1 µg/mL
CCCc1cc(=O)oc2c(C(=O)CC)c(N3CCN(Cc4ccc(F)cc4)CC3)c3c(c12)OC(C)(C)C=C3,H37Rv,-,turbidity,MIC90,-,>26 µg/mL
CO[C@H]1/C=C/O[C@@]2(C)Oc3c(C)c(O)c4c(O)c(c5c(c4c3C2=O)NC2(CCN(CC(C)C)CC2)N=5)=NC(=O)/C(C)=C\C=C\[C@H](C)[C@H](O)[C@@H](C)[C@@H](O)[C@@H](C)[C@H](OC(C)=O)[C@@H]1C,4 isolates (HIS526ARG),-,-,MIC,-,>5 µg/mL
O=c1oc2c(Cl)cc(Cl)cc2cc1-c1cn2ccccc2n1,H37Rv,-,BACTEC,MIC,-,>6.25 µg/mL
O=C(O)Cc1cccc2c(=O)cc(-c3ccccc3)oc12,H37Rv,-,BACTEC,inhibition,12.5 µg/mL,8%
CC1COc2c(N3CCN(C)CC3)c(F)cc3c(=O)c(C(=O)O)cn1c23,Beijing,-,broth dilution,MIC,-,0.5 µg/mL
N[C@@H]1CN(c2c(F)cc3c(=O)c(C(=O)O)cn([C@@H]4C[C@@H]4F)c3c2Cl)CC12CC2,-,-,-,MIC90,-,0.12–2 µg/mL
CCC1(O)CCSC(c2ccccc2)=N1,H37Rv,-,-,EC50,-,<6.25 µg/mL
Oc1c(Cl)c(Oc2cc(Cl)cc(Cl)c2)cc(Oc2ccc(Cl)cc2Cl)c1Cl,H37Rv,-,-,MIC,-,>128 µg/mL
NC(=O)c1cnc(Cl)cn1,ATCC35801,-,-,MIC,-,16 µg/mL
O=C(NN1C(=O)c2ccccc2C1=O)c1ccc(-n2cccc2)cc1,H37Rv,-,resazurin,MIC,-,0.4 µg/mL
C=C1CC[C@@](C)(c2cc(Br)c(C)cc2O)[C@H]1C,H37Rv,-,-,MIC,-,16 µg/mL
O=C([C@@H](O)CO)N1CC=C(c2c(F)cc(N3C[C@H](COc4ccon4)OC3=O)cc2F)CC1,H37Rv (ATCC 27294),-,broth dilution,MIC,-,1 µg/mL
COc1ccc2nc3c(C)n(C)ccc-3c2c1,H37Rv,-,BACTEC,MIC bound,-,>12.5 µg/mL
OC12CCCC(C1)SC(c1ccccc1)=N2,H37Rv,-,-,inhibition,6.25 µg/mL,97%
COc1c2c(c(OC)c3ccccc13)CN(c1ccc([N+](=O)[O-])cc1)C(=N)C2,H37Rv,Lux,luminescence,MIC,-,15.75 µM
O=C(N[C@@H](CO)C(=O)N/N=C/c1ccccc1)OCc1ccccc1,H37Rv,-,resazurin,MIC,-,>100 µg/mL
NNC(=O)c1ccncc1,H37Rv,Lux,luminescence,MIC,-,0.18 µM
O=c1oc2ccccc2cc1-c1cn2ccc(Br)cc2n1,H37Rv,-,BACTEC,MIC,-,>6.25 µg/mL
CC(C)(C)OC(=O)N[C@@H](CO)C(=O)N/N=C/c1cccc(C#N)c1,H37Rv,-,resazurin,MIC,-,>100 µg/mL
O=c1oc2ccccc2cc1-c1cs/c(=N\N=C\c2ccccc2[N+](=O)[O-])n1C1CCCCC1,H37Rv,-,-,inhibition,12.5 µg/mL,12%
S=C1SCN(C2CCCCC2)CN1C1CC1,H37Rv,-,-,MIC,-,100 µg/mL
Cc1cccc(N=NC2Sc3nc4ccccc4n3C2=O)c1,H37Rv,-,BACTEC,inhibition,12.8 µg/mL,1%
CCN(CCCCCN1C(=O)C(=O)c2cc(C3CCCCC3)ccc21)Cc1ccccc1,H37Ra,-,-,MIC,-,≤20 µg/mL
O=C1c2ccccc2-c2c(Br)c3ccccc3c(=O)n21,H37Rv,-,resazurin,MIC bound,-,>6.25 µg/mL
O=C(N[C@@H](CO)C(=O)N/N=C/c1ccc(O)cc1O)OCc1ccccc1,H37Rv,-,resazurin,MIC,-,100 µg/mL
COC(=O)C1=CO[C@@H](C)[C@H]2CN3CCc4c([nH]c5ccccc45)[C@@H]3C[C@H]12,H37Rv,-,BACTEC,MIC bound,-,>12.8 µg/mL
CC(=O)c1c(O)c(C)c(O)c2c1OC1=CC(=O)C(C(C)=O)C(=O)[C@]12C,H37Rv,-,-,MIC,-,16 µg/mL
O=c1oc2ccc(Br)cc2cc1-c1cn2cc(Br)ccc2n1,H37Rv,-,BACTEC,inhibition,6.25 µg/mL,0%
C=C1CC(=O)N(NC(=O)c2ccc(-n3c(C)ccc3C)cc2)C1=O,H37Rv,-,resazurin,MIC,-,3.125 µg/mL
CCSC1OC(C(O)CO)C(O)C1NC(=O)C(F)(F)F,H37Rv,-,BACTEC,inhibition,12.5 µg/mL,5%
O=c1oc2c([N+](=O)[O-])cccc2cc1-c1cn2ccc(Br)cc2n1,H37Rv,-,BACTEC,MIC,-,>6.25 µg/mL
CC1COc2c(N3CCN(C(N)=NC#N)CC3)c(F)cc3c(=O)c(C(=O)O)cn1c23,ATCC35821,-,broth dilution,MIC,-,0.625–1.25 µg/mL
Nc1nc(N)c2nc3c(nc2n1)C(=O)N(c1ccc(C(=O)NC(CCC(=O)O)C(=O)O)cc1)C3,H37Rv,-,BACTEC,inhibition,12.5 µg/mL,-13%
CC(C)(C)OC(=O)N[C@@H](CO)C(=O)N/N=C/c1ccc(O)cc1O,H37Rv,-,resazurin,MIC,-,>100 µg/mL
CC1COc2c(N3CCN(C)CC3)c(F)cc3c(=O)c(C(=O)O)cn1c23,-,-,-,MIC90,-,1–2 µg/mL
O=C(CSc1nc2ccccc2[nH]1)NCCO,H37Rv,-,BACTEC,inhibition,12.5 µg/mL,-6%
C=CCn1c(-c2cc3ccccc3oc2=O)cs/c1=N\N=C\c1cc(Br)ccc1O,H37Rv,-,-,inhibition,12.5 µg/mL,83%
N=c1cc2c(cn1-c1ccc(Br)cc1)C(=O)c1ccccc1C2=O,H37Rv,Lux,luminescence,MIC,-,0.65 µM
CCCCn1c(-c2cc3ccccc3oc2=O)cs/c1=N\N=C\c1ccc(Cl)cc1,H37Rv,-,-,MIC,-,>12.5 µg/mL
CCCN(CCC)CNC(=O)c1cnccn1,ATCC 35822,-,-,MIC,-,100 µg/mL
O=C1C(=O)N(CCCCBr)c2ccc(C3CCCCC3)cc21,H37Rv,-,-,MIC,-,≤20 µg/mL
CCN(CC)CNC(=O)c1cnc(N(CC)CC)cn1,ATCC35801,-,-,MIC,-,16 µg/mL
O=C(O)CCCN1CSC(=S)N(Cc2ccccc2)C1,H37Rv,-,-,MIC,-,12.5 µg/mL
O=C1C(=O)N(CCCCBr)c2c1cccc2-c1ccccc1,H37Ra,-,-,MIC,-,≤20 µg/mL
COC(=O)C(=O)C(C(=O)c1ccc(F)cc1)c1nc2n(c1O)C(=N)N=N2,H37Rv,-,resazurin,inhibition,6.25 µg/mL,6%
NNC(=O)c1ccncc1,AZD5847-resistant 8.10,G2270T,-,MIC,-,0.06 µg/mL

Repeating the first 9 entries:

Cc1ccn2cc(-c3cc4cc(Cl)cc(Cl)c4oc3=O)nc2c1 ; strain: H37Rv ; method: BACTEC ; endpoint: inhibition ; tested at: 6.25 µg/mL ; value: 20%
CC(C)(C)OC(=O)N[C@@H](CO)C(=O)N/N=C/c1ccc(O)c(O)c1 ; strain: H37Rv ; method: resazurin ; endpoint: MIC ; value: >100 µg/mL
CCCCN1C(=O)C(=O)c2cccc(-c3ccccc3)c21 ; strain: H37Ra ; endpoint: MIC ; value: ≤20 µg/mL
Cc1ccn2cc(-c3cc4cc(Cl)ccc4oc3=O)nc2c1 ; strain: H37Rv ; method: BACTEC ; endpoint: MIC ; value: >6.25 µg/mL
CCCCOC(=O)CCN1CCN(c2ccc(C)cc2)CC1 ; strain: H37Rv ; method: resazurin ; endpoint: inhibition ; tested at: 6.25 µg/mL ; value: 1%
COc1c2c(c(OC)c3ccccc13)CN(c1ccccc1Br)C(=N)C2 ; strain: H37Rv ; mutations: Lux ; method: luminescence ; endpoint: MIC ; value: 14.83 µM
COc1cc(Br)cc2cc(-c3cn4ccc(C)cc4n3)c(=O)oc12 ; strain: H37Rv ; method: BACTEC ; endpoint: MIC ; value: >6.25 µg/mL
COc1ccc2c3c1OC1C(C)=CCC4C(C2)N(C)CCC314 ; strain: H37Rv ; method: BACTEC ; endpoint: inhibition ; tested at: 12.5 µg/mL ; value: 0%
Cc1ccc(C)n1-c1ccc(C(=O)NN2C(=O)c3c(F)c(F)c(F)c(F)c3C2=O)cc1 ; strain: H37Rv ; method: resazurin ; endpoint: MIC ; value: 0.2 µg/mL